Laboratory results: PubChem BioAssay AID624099 (ICCB-Longwood, 2012)

- Test: 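Human genes that papillomavirus E2 requires to repress the HPV18 LCR promoter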 (primary screen)
- System: human C33A cervical carcinoma cells (HPV-negative) stably expressing BPV1 E2 and an HPV18 LCR luciferase reporter
- Knock-down reagent: siRNA pool against human genes, 40 nM
- Time to read-out: 72 h
- Read-out: 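Per-well luciferase luminescence, z-scored on each plate against the plate mean and SD with control wells left out, then averaged across three replicate plates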
- Reading the numbers: mean z-score and z-score: higher = stronger reporter signal, weaker E2 silencing
- Hit rule: 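Mean z ≥ 2 together with z ≥ 2 in two or more of the three replicates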
The whole screen tested about 21,000 reagents; shown is a part drawn at random. Of all reagents, 497 (2.4%) got an active call. 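Higher z means weaker E2 silencing; only reporter increases were scored, and knock-downs that hurt cell survival may mask genuine repressor factors.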

no.	gene	mean z-score	z-score, replicate A	z-score, replicate B	z-score, replicate C	Outcome
1	CCDC59	-0.89	-0.87	-1	-0.79	inactive
2	EFR3B	1.51	1.17	1.74	1.62	inactive
3	SULT2A1	-0.22	-0.11	-0.33	-0.23	inactive
4	NOP9	-0.7	-0.47	-0.9	-0.73	inactive
5	SF1	-1.23	-1.18	-1.15	-1.36	inactive
6	ZNF311	1.36		1.35	1.37	inactive
7	KLHL12	-0.19	-0.67	-0.29	0.37	inactive
8	LPCAT3	-0.03	-0.26	0.12	0.06	inactive
9	OR56A1	0.29	-0.01	0.53	0.35	inactive
10	ASF1A	-0.77	-0.83	-0.62	-0.87	inactive
11	ATP8B5P	-0.12	1.09	-1.08	-0.37	inactive
12	TSPAN31	-0.72	-0.88	-0.74	-0.55	inactive
13	CSK	1.72	1.49	1.75	1.9	inactive
14	ANKRD34B	-0.23	-0.63	-0.07	0	inactive
15	PHF7	-0.71	-0.24	-0.97	-0.93	inactive
16	DRC1	0.59	0.23	0.98	0.56	inactive
17	LOC144762 (retired record)	0.25	0.3	0.21	0.24	inactive
18	ERMP1	-0.2	0.04	-0.39	-0.24	inactive
19	LOC400688 (retired record)	-0.33	-0.1	-0.72	-0.17	inactive
20	FSHR	-0.75	-0.41	-1.05	-0.77	inactive
21	PRSS35	0.35	0.05	0.26	0.73	inactive
22	ADGRA2	0.97	1.1	1.03	0.77	inactive
23	LHCGR	0.34	0.41	0.3	0.32	inactive
